This assay has as its target human ACE2 ectodomain (residues 1-615), Fc-tagged (human) (UniProt Q9BYF1). Nature of the assay: SPR. In general terms: Surface plasmon resonance follows binding to a sensor surface in real time, without labels.

“And” between values parts separate entries of the source, which are not always exact repeats. Identical values can stand only once.

Usually Kd stands for a measure of binding affinity in units of concentration. Lower therefore signals tighter binding. By koff is commonly meant the first-order rate constant of dissociation. A high value points to fast dissociation. In general, kon refers to the second-order rate constant of association. A higher kon goes with faster complex formation. In the case of “SARS-CoV-2 RBD (prototypic strain, residues 319-529), His-tagged (from UniProt P0DTC2 319-529) (domain or fragment; other documents disagree on this pair)”, the Kd is 36.9 nM and 26.5 nM and 31.7 nM; the koff is 0.0151 s⁻¹ and 0.0123 s⁻¹ and 0.0274 s⁻¹; the kon is 410000 M⁻¹ s⁻¹ and 463000 M⁻¹ s⁻¹ and 864000 M⁻¹ s⁻¹.

Source of the values: paper PMC11098500.
